How the values were obtained:
[1] = tested on: Staphyloccocus aureus USA300; experiment: Minimum inhibitory concentration, broth microdilution, Staphylococcus aureus; type: cell-based; details: for SI SA (IC50 Hela cytotoxicity / MIC): ratio to MIC against SA
[2] = tested on: Bacillus anthracis V770-NP1-R; type: cell-based

Structure (SMILES) | SI SA (IC50 Hela cytotoxicity / MIC) [1] | SI BA (IC50 Hela cytotoxicity / MIC) [2] | fold less potent/active than 3 ([1]; SA MIC) [fold] | also measured
O=C(c1cc(F)cc(F)c1O)c1[nH]c(Br)c(Br)c1Br [Compound 3] | > 275 |  |  | 
O=C(c1cc(Br)c(F)[nH]1)c1cc(Cl)cc(Cl)c1O [Compound 4] | > 484 | > 751 |  | 
COc1c(F)cc(F)cc1C(=O)c1[nH]c(Br)c(Br)c1Br [Compound 10] |  |  | 18 | 
COc1c(F)cc(F)cc1C(=O)c1c(Br)c(Br)c(Br)n1C [Compound 11] |  |  | 24 | 
Cn1c(Br)c(Br)c(Br)c1C(=O)c1cc(F)cc(F)c1O [Compound 12] |  |  | 24 | 
O=C(c1cc(Br)c(Br)[nH]1)c1cc(Cl)cc(Cl)c1O [Compound 17] | >567 | >220 |  | 
O=C(c1cc(Cl)cc(Cl)c1O)c1[nH]c(F)c(Br)c1Br [Compound 18] | >229 | >346 |  | 
O=C(c1cc(Br)c[nH]1)c1cc(Cl)cc(Cl)c1O [Compound 19] |  |  |  | fold less active than congeners 4 and 17 ([1]; SA MIC): at least 54 fold
